Anti-infective test results gathered from many reports (values: NIAID ChemDB through PubChem).

Shared fields: host cell toxicity; cell line: PRK; endpoint: CC50

Neighbouring rows are from separate reports.

| SMILES | value |
|---|---|
| Nc1ncnc2c1ncn2[C@@H]1C=C(CO)[C@@H](O)[C@@H]1O | >5 µg/mL |
| [N-]=[N+]=N[C@H]1[C@@H](F)[C@H](N2C=CC(N)NC2=O)O[C@@H]1CO | >400 µg/mL |
| Nc1ncnc2c1ncn2C[C@H](O)CO | >5 µg/mL |
| CON1CCc2c([nH]c3ccccc23)[C@@H]1[C@@H](N)CSC | 200 µg/mL |
| Nc1nc(=O)n([C@H]2C[C@H](O)[C@@H](CO)O2)cc1/C=C/Cl | >400 µg/mL |
| [N-]=[N+]=N[C@H]1[C@@H](F)[C@H](n2cnc3c(N)ncnc32)O[C@@H]1CO | >400 µg/mL |
| O=c1[nH]c(=O)n([C@H]2C[C@H](O)[C@@H](CO)O2)cc1/C=C/Br | >400 µg/mL |
| COc1ccc2[nH]c3c(c2c1)CCN1OCSCC(N)[C@@H]31 | ≥1 µg/mL |
| Nc1ncnc2c1ncn2[C@@H]1C=C(CO)[C@@H](O)C1 | >50 µg/mL |
| O=c1[nH]c(=O)n([C@@H]2OC3COP(=O)(O)OC3[C@H]2O)cc1Br | 400 µg/mL |
| O=c1[nH]c(=O)n([C@H]2C[C@@H](CO)[C@H](O)C2)cc1I | ≥400 µg/mL |
| Nc1nccc2c1ncn2[C@@H]1C[C@H](CO)[C@@H](O)[C@H]1O | >500 µg/mL |
| O=c1[nH]c(=O)n([C@@H]2OC3COP(=O)(O)OC3[C@H]2O)cc1Cl | >400 µg/mL |
| Cc1nc(C(C)C)c2[nH]c(=S)[nH]c(=O)n12 | 200 µg/mL |
| N=C(N)CCNC(=O)c1c[nH]c(NC(=O)c2c[nH]c(NC(=O)/C=C/C(=O)Nc3c[nH]c(C(=O)Nc4c[nH]c(C(=O)NCCC(=N)N)c4)c3)c2)c1 | ≥40 µg/mL |
| CC(=O)Nc1nc2c(CC(O)CO)nc(C)n2c(=O)[nH]1 | 400 µg/mL |
| N=C(N)CCNC(=O)c1c[nH]c(NC(=O)c2c[nH]c(NC(=O)c3c[nH]c(NC(=O)CCC(=O)Nc4c[nH]c(C(=O)Nc5c[nH]c(C(=O)Nc6c[nH]c(C(=O)NCCC(=N)N)c6)c5)c4)c3)c2)c1 | ≥40 µg/mL |
| Nc1ncnc2c1ncn2C1CC(COP(=O)(O)O)[C@@H](O)[C@H]1O | 20 µg/mL |
| Cc1nc(CC(O)CO)c2nc[nH]c(=O)n12 | >400 µg/mL |

CCn is the concentration with n% toxicity to the cells.